{
  "source": "patent US20240059741A1",
  "about": "“COMPOSITION FOR PREVENTION OR TREATMENT OF SARS-COV-2 INFECTION” (priority 2020, published 2024)",
  "key": {"[1]": {"biological_target": "T1, SARS-CoV-2 S1 protein-His Tag (AcroBiosystems, S1N-C52H3-100UG) (SARS-CoV-2), P0DTC2"}, "[2]": {"biological_target": "T1, SARS-CoV-2 S1 protein-His Tag …", "remark": "listed apart in the source"}, "[3]": {"biological_target": "T1, SARS-CoV-2 S1 protein-His Tag …", "remark": "listed apart in the source"}},
  "note": "Like-named read-outs stand apart in the source and are kept apart here.",
  "data": [
    {"binder": "IEEQAKTFLDKFNHEAEDLFYQSSLASGPGCLGKGDCRIL", "note": "[CSNP1]", "values": [
      {"measurement": "Kd", "setting": "[1]", "result": 0.311, "unit": "µM"},
      {"measurement": "koff", "setting": "[1]", "result": 0.000188, "unit": "s⁻¹"},
      {"measurement": "kon", "setting": "[1]", "result": 603, "unit": "M⁻¹ s⁻¹"},
      {"measurement": "Kd", "setting": "[2]", "result": 0.3, "unit": "µM"}
    ]},
    {"binder": "LQAANFLDKDNDEKEDLFYKSSLASPGGCLGKGDCRIL", "note": "[CSNP2]", "values": [
      {"measurement": "Kd", "setting": "[3]", "result": 31.8, "unit": "µM"},
      {"measurement": "koff", "setting": "[3]", "result": 0.000498, "unit": "s⁻¹"}
    ]}
  ]
}
